Here are results for 1 molecule from US9695127B2, “Compounds for treating HIV and methods for using the compounds” (University of Pittsburgh—Of the Commonwealth System of …, priority 2012, dated 2017).

For assay [1], the system named is Nef-defective (ΔNef) HIV-1 NL4-3. The assay is described as follows: Nef-defective HIV-1 replication in CEM-T4 cells (p24 ELISA). Particulars: Nef chimera experiment, 0.3 and 1.0 μM. (In general: An ELISA detects its analyte on a solid surface through an enzyme-linked reagent.)
The test system of assay [2] is SIV quasispecies ΔB670. The assay is described as follows: SIV replication in CEM-174 cells (p27 Gag ELISA). Particulars: read-out: IC50 SIV replication, 5 days.
Assay [3] relates to SIV ΔB670. The assay is described as follows: SIV infectivity in TZM-b1 reporter cells (luciferase). Particulars: read-out: IC50 SIV infectivity, luciferase 48 hours.
In assay [4] the test system is endogenous Src-family kinase (SFK) activation. The assay is described as follows: Nef-mediated endogenous SFK activation in HIV-infected CEM-T4 cells (pY418 immunoblot). Particulars: 1.0 μM. On the technique in general: Immunoblotting shows a protein as a band on a membrane.
Assay [5] deals with cell-surface MHC-I. Nature of the assay: Nef-induced MHC-I downregulation in CEM-GFP cells (flow cytometry). Particulars: CEM-GFP cells infected with HIV-1 WT NL43, 8 days. Background: Flow cytometry measures light scatter and fluorescence of single cells or particles in a stream.

A word on the IC50: it is the concentration at which inhibition is half-maximal. For `NC(=S)n1nc(-c2ccc([N+](=O)[O-])cc2)c(N=Nc2cccc(Cl)c2)c1O`, the “Effect on replication of Nef-defective HIV” value in assay [1] is recorded as “no effect”. Further, the IC50 in assay [2] stood at 1 µM; in assay [3], 3 µM. In addition, in assay [4], the “Nef-dependent SFK activation (pY418)” value was “completely inhibited”. Moreover, the “Reversal of Nef-mediated MHC-I downregulation” value in assay [5] is recorded as “reverse Nef-mediated MHC-I downregulation to the same extent observed in cells infected with Nef-defective HIV-1”.
